From paper PMC4802734 (Cell Chemical Biology, 2016)
Where two headings read alike, the source gives them in different places.

Assays:
PrfAWT = PrfAWT (Listeria monocytogenes serovar 1/2a, UniProt P22262)
PrfAG145S = PrfAG145S (Listeria monocytogenes serovar 1/2a, UniProt P22262, G145S); conditions: ITC, determined at 293 K
[1] = molecular target: PrfAWT binding to hly-DNA (Listeria monocytogenes serovar 1/2a, UniProt P22262); assay: SPR, binding of compound-pre-incubated PrfAWT to hly-promoter DNA; conditions: read-out: IC50, reduction of binding of PrfAWT to hly-DNA, 200 nM protein, 37°C
[2] = test system: L. monocytogenes strain EGDe (WT) uptake by HeLa cells; assay: Viable count uptake experiment, L. monocytogenes EGDe in HeLa cells; conditions: 10 and 1 μM
[3] = test system: LLO and ActA expression in L. monocytogenes; assay: Western blot of virulence protein levels (LLO, ActA, PrfA, P60), EGDe
[4] = test system: LLO expression in L. monocytogenes 10403S, LO28 and F2365; assay: Western blot of LLO and PrfA in other L. monocytogenes strains (10403S, LO28, F2365); conditions: 100 μM
[5] = test system: pilus biogenesis in E. coli; conditions: 3.6 mM; ref Pinkner et al., 2006; cited from earlier work
[6] = test system: Crp-regulated pili expression in E. coli; conditions: 800 μM; ref Cegelski et al., 2009; Chorell et al., 2010; cited from earlier work

Q: With `O=C(O)[C@@H]1CSc2c(C3CC3)c(Cc3cccc4ccccc34)cc(=O)n21` as the molecule, how does the “binding stoichiometry per monomer of homodimeric PrfA” value (PrfAWT; ITC) read?
A: Its value is 1 to 1.

Q: And the Kd (PrfAWT; ITC, determined at 293 K)?
A: The Kd was 1 µM.

Q: And the “ΔHA, enthalpy of association” value (PrfAWT; ITC, determined at 293 K)?
A: The value was -8.4 ± 0.1 kcal/mol.

Q: And the “ΔSA, entropy of association” value (PrfAWT; ITC, determined at 293 K)?
A: The value was −0.8 ± 0.1 cal/mol·K.

Q: And the Kd (PrfAWT; read-out: dissociation constant (KD), ITC, 1 to 1 binding model)?
A: Its Kd is 1 µM.

Q: What about the Kd (PrfAG145S) of the same molecule?
A: Its Kd is 7.75 µM.

Q: And the “ΔHA, enthalpy of association” value (PrfAG145S)?
A: The value was -6.2 kcal/mol.

Q: And the “ΔSA, entropy of association” value (PrfAG145S)?
A: Its value is 2.6 cal/mol·K.

Q: What about the IC50 [1] of the same molecule?
A: Its IC50 is 6 to 7 µM.

Q: And the “L. monocytogenes uptake relative to untreated controls” value [2]?
A: The value was “reducing the level of L. monocytogenes uptake”.

Q: What about the “expression of LLO and ActA (protein)” value ([3]; 100 μM) of the same molecule?
A: The value was “abolished”.

Q: And the “PrfA expression (protein)” value ([3]; across all concentrations)?
A: Its value is “remained unchanged”.

Q: What about the “concentration down to which LLO and ActA levels were decreased” value ([3]; dose dependent) of the same molecule?
A: Its value is no more than 3.3 µM.

Q: And the “LLO expression in strains 10403S, LO28 and F2365” value [4]?
A: The value was “effectively reduced LLO expression”.

Q: What about the “levels of PrfA in strains 10403S, LO28 and F2365” value [4] of the same molecule?
A: Its value is “unaffected”.

Q: And the “pilus biogenesis in E. coli” value [5]?
A: Its value is “blocked pilus biogenesis”.

Q: What about the “effect on the Crp-regulated pili expression in E. coli” value [6] of the same molecule?
A: The value was “no effect”.
